Experimental data taken from patent publication US9266904B2, “6-bridged heteroaryldihydropyrimidines for the treatment and prophylaxis of hepatitis B virus infection” (priority 2013, dated 2016).

Test system: HepDE19 cells
Assay: Cytotoxicity (CCK-8 cell viability) and selectivity index
Assay type: cell-based, human
Conditions: CC50 value/EC50 value
From the text: HepG2.2.15 and HepDE19 are stably-transfected cell lines containing the HBV genome. Both cell lines are derived from the hepatoblastoma cell line Hep G2 (American Type Culture Collection, ATCC® HB-8065™) by the published procedures described in references: M A Selles et al. Proc. Natl. Acad. Sci. USA 1987, 84, 1005-1009 and H Guo et al. Journal of Virology 2007, 81, 12472-12484, respectively. Both cell lines were maintained in Dulbecco's modified Eagle's medium (DMEM)-F12 medium supplemented with 10% fetal bovine serum, 100 U/mL penicillin, 100 μg/mL streptomycin, and 0.5 mg/mL of G418.
In a cell culture model, apparent antiviral activity of a compound can be the result of host cell death after exposure to the compound. To determine whether the anti-HBV effect of a test compound is due to cytotoxicity, HepDE19 cells were seeded into 96-well plates (5×10^3 cells per well) and treated with compounds as described above for EC50 determination. Five days after treatment, cell viability was measured by addition of 20 μL of CCK-8 reagent. Two hours after incubation at 37° C., the absorbance at wavelengths of 450 nm and 630 nm (OD450 and OD630) was recorded by a plate reader. The concentration results in the death of 50% of the host cells (CC50) of each compound was determined (See Table 5).

Row | Structure (SMILES) | Selectivity index (CC50/EC50)
1 | COC(=O)C1=C(CN2[C@@H]3C[C@@H](CC(=O)O)C[C@H]2C(F)(F)C3)NC(c2nccs2)=N[C@H]1c1ccc(Cl)c(F)c1 (single isomer, unassigned) [Example 113, 2-[(1R,3R,5S)-8-[[(4S)-4-(4-chloro-3-fluoro-phenyl)-5-methoxycarbonyl-2-thiazol-2-yl-1,4-dihydropyrimidin-6-yl]methyl]-6,6-difluoro-8-azabicyclo[3.2.1]octan-3-yl]acetic acid or 2-[(1S,3S,5R)-8-[[(4S)-4-(4-chloro-3-fluoro-phenyl)-5-methoxycarbonyl-2-thiazol-2-yl-1,4-dihydropyrimidin-6-yl]methyl]-6,6-difluoro-8-azabicyclo[3.2.1]octan-3-yl]acetic acid] | 6404
2 | COC(=O)C1=C(CN2[C@H]3COC[C@@H]2C(F)(F)[C@H](CC(=O)O)C3)NC(c2nccs2)=N[C@H]1c1ccc(F)c(F)c1Cl (single isomer, unassigned) [Example 131, 2-[(1R,5R,7S)-9-[[(4R)-4-(2-chloro-3,4-difluoro-phenyl)-5-methoxycarbonyl-2-thiazol-2-yl-1,4-dihydropyrimidin-6-yl]methyl]-6,6-difluoro-3-oxa-9-azabicyclo[3.3.1]nonan-7-yl]acetic acid or 2-[(1S,5S,7R)-9-[[(4R)-4-(2-chloro-3,4-difluoro-phenyl)-5-methoxycarbonyl-2-thiazol-2-yl-1,4-dihydropyrimidin-6-yl]methyl]-6,6-difluoro-3-oxa-9-azabicyclo[3.3.1]nonan-7-yl]acetic acid] | 9346
